Assay results reported in article PMC9207808 (ACS Chemical Biology, 2022).

Assay: general procedure: Fmoc solid-phase peptide synthesis; Preloaded Wang resins; Fmoc-Rink Amide MBHA resin; DIC / Oxyma Pure
Settings: whole synthesis, 220 nm

| Substance | final LC-MS purity [%] |
| --- | --- |
| Ac-WMDDEFAAIMAVAGNELRELADK-OH | 96 |
| Ac-EFAAIMAVHGNELRELA-OH | 99 |
| Ac-WMDDEFAAIMAVHANELRELADK-OH | 97 |
| Ac-WMDDEFAAAMAVHGNELRELADK-OH | 99 |
| Ac-WMDDEFAAIMAAHGNELRELADK-OH | 95 |
| Ac-WMDDEFAAIMAVHGNELAELADK-OH | 97 |
| Ac-WADDEFAAIMAVHGNELRELADK-OH | 99 |
| Ac-WMADEFAAIMAVHGNELRELADK-OH | 99 |
| Ac-WMDDEFAAIMAVHGAELRELADK-OH | 96 |
| Ac-WMDDEFAAIAAVHGNELRELADK-OH | 99 |
| Ac-WMDAEFAAIMAVHGNELRELADK-OH | 98 |
| Ac-WMDDEFAAIMAVHGNELRELAAK-OH | 98 |
| Ac-WMDDEAAAIMAVHGNELRELADK-OH | 99 |
| Ac-WMDDEFAAIMAVHGNELRELADA-OH | 93 |
| Ac-WMDDEFAAIMAVHGNEARELADK-OH | 99 |
| Ac-EFAAIMAVHGNELRELADK-OH | 98 |
| Ac-WMDDEFAAIMAVH-NH2 | 99 |
| Ac-WNELRELADK-OH | 99 |
| Ac-WMDDEFAAIMAVHGNELREAADK-OH | 97 |
| Ac-WMDDEFAAIMAVHGNELRALADK-OH | 94 |
| Ac-FAAIMAVHGNELREL-OH | 99 |
| Ac-WMDDAFAAIMAVHGNELRELADK-OH | 97 |
| Ac-WMDDEFAAIMAVHGNELRELADK-OH | 99 |
| Ac-WMDDEFAAIMAVHGNELRELA-OH | 99 |
| Ac-WMDDEFAAIMAVHGNALRELADK-OH | 97 |
